Laboratory results: PubChem BioAssay AID1224833 (University of Georgia, 2016)
In all, the deposit lists about 12,000 reagents; this is a random part of them. Of all reagents, about 5,600 (46%) got an active call. 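Active calls cover z-scores past 1 in both directions, so they include lowered as well as raised rotavirus replication.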 Reagent sequences are not shown.

Purpose: 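Human genes whose knock-down alters rotavirus replication in monkey cells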 (primary screen)
Cells: monkey MA104 kidney cells
Reagent: siRNA pool against human genes, 50 nM
Duration: 48 h knock-down before infection; read 24 h after infection
Challenge: infection with rotavirus strain RV3 two days after transfection; infectious dose for this stage not given
Read-out: 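z-score of rotavirus antigen signal per well, from a fluorescent immunoassay, relative to non-targeting control wells on the same plate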
Reading the numbers: z-score vs non-targeting control: higher = more rotavirus replication than with non-targeting control
Hit rule: In these data the active calls have z-score vs non-targeting control at about -1 or lower, or at about 1 or higher
Calls: active = z-score beyond 1 either way; inactive = z-score within 1 of zero

| gene | z-score vs non-targeting control | call |
| --- | --- | --- |
| TMEM225 | -1.23 | active |
| FEM1C | -1.25 | active |
| RECQL5 | -0.665 | inactive |
| UGGT1 | 1.43 | active |
| NUDT17 | -0.0974 | inactive |
| TAS2R46 | -1.47 | active |
| PDRG1 | 0.53 | inactive |
| OR51F1 | -0.512 | inactive |
| DENR | -2.06 | active |
| STPG2 | 0.87 | inactive |
| GASK1B | 1.27 | active |
| ZBTB26 | -0.191 | inactive |
| MSI1 | -0.75 | inactive |
| AP4B1 | -2.93 | active |
| LAPTM4B | -0.189 | inactive |
| SMAD1 | -1.25 | active |
| CAPSL | -1.61 | active |
| PTGR2 | -1.47 | active |
| PARP12 | -0.377 | inactive |
| CD163L1 | -1.46 | active |
| YBX3 | -0.894 | inactive |
| NR2C2AP | -1.79 | active |
| CD47 | 0.985 | inactive |
| MBNL2 | 0.909 | inactive |
| ALLC | -0.648 | inactive |
| SNX4 | -1.61 | active |
| CHMP1A | 0.719 | inactive |
| ZNF107 | -1.14 | active |
| DYNLT2 | -0.0423 | inactive |

Continued; the last 3 above are carried over.
| gene | z-score vs non-targeting control | call |
| --- | --- | --- |
| CHMP1A | 0.719 | inactive |
| ZNF107 | -1.14 | active |
| DYNLT2 | -0.0423 | inactive |
| TLCD3B | -0.572 | inactive |
| NXPE4 | 2.14 | active |
| BCO2 | -2.1 | active |
| GIPC3 | 0.0496 | inactive |
| HTR3D | 1.54 | active |
| EEF1E1 | 0.637 | inactive |
| COX7B | 0.691 | inactive |
| CCL22 | 0.42 | inactive |
| FAM120C | -0.741 | inactive |
| CLDN20 | 0.192 | inactive |
| ZNF174 | 0.821 | inactive |
| MRPL2 | -1.78 | active |
| MS4A6A | -0.903 | inactive |
| ABHD6 | -1.97 | active |
| PIN4 | -3.02 | active |
| KIF9 | -0.354 | inactive |
